Biological target: HPV-16 E2 protein (Human papillomavirus type 16, UniProt P03120)
Test: Determination of dissociation constants by surface plasmon resonance (Biacore 3000, captured GST-E2 fusion)
Conditions: read-out: dissociation constant, steady state model, PBST containing 2% (v/v) DMF
Procedure: Surface Plasmon Resonance Instrument. Surface plasmon resonance experiments were performed with a Biacore® 3000 Biosensor (Biacore AB, Uppsala, Sweden). To keep the instrument in good working condition, a series of washing steps were performed on a weekly basis. In addition to the prescribed maintenance washes, the fluidic system was primed three times in a row with the following reagents: 0.5% (w/v) SDS, 6 M urea, 1% (v/v) acetic acid, and 0.2 M NaHCO3. When not in use, a standby program injects water at a flow rate of 5 μL/minute to prevent salt build-up in the lines or integrated fluidic cartridge. Whenever running buffer was changed, the system was primed three times in order to equilibrate the sensor chip and the instrument.
Immobilization of anti-GST Antibody. A CM5 sensor chip was docked and the system was primed three times with filtered and degassed PBST containing 5% (v/v) DMF. Affinity purified and sterile filtered goat-anti-GST IgG (0.8 mg/mL in 150 mM NaCl) from the Biacore GST kit for fusion capture was diluted to 30 μg/mL in 10 mM sodium acetate, pH 5.0 (100 μL per immobilization). Two flow cells were activated with 1:1 NHS:EDC (N-hydroxysuccinimide:[…]) for 8 minutes at a flow rate of 5 μL/min using the “surface preparation: immobilization: amine coupling” wizard application. […]

The chains behind the UniProt entries cited, without tags or fusion partners.
UniProt P03120, whole entry: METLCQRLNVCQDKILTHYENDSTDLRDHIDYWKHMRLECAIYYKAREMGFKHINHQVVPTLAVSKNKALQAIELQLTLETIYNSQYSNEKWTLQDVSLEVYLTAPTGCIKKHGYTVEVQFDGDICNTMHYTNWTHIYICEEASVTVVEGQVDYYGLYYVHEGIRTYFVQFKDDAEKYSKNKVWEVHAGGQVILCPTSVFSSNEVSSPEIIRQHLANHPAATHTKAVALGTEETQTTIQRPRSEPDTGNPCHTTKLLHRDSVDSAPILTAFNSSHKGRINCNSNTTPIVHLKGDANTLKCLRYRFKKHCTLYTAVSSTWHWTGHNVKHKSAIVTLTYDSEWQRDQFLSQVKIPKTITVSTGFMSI

Q: Which Kd does the source give for Cn1nnnc1SC[C@H]1C[C@@H](c2ccc(CO)cc2)O[C@@H](c2ccc(CN)cc2)O1 here?
A: Its Kd is 1.7 nM.
